Assay results as given in ChEMBL document CHEMBL1909294, “Translating clinical findings into knowledge in drug safety evaluation--drug induced liver injury prediction system (DILIps)” (PLoS Comput Biol, 2011).

System: Hepatotoxicity
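Also: Hepatitis-related hepatic side effect score taken from the training data of DILIps, a prediction system for drug-induced liver injury; call rule not given here.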

GADOVERSETAMIDE
HepSE_hepatitis: 0
